# Several values for one entry are separate records, joined by “and”; a condition that tells them apart may be missing. Equal entries are not always repeated.
# Test system: PA14
# Assay: Drug accumulation assay (intrabacterial drug metabolism, LC–MS)
# Format: cell-based, Pseudomonas aeruginosa
# Settings: for Conc (nmol/L) in cell lysate / AUC0-90min of accumulation: PA14, 5 μM drug, one value per replicate
# [1] = PA14, 5 μM trimethoprim, 60 min
# [2] = PA14, 5 μM trimethoprim, 90 min
# [3] = PA14, 5 μM fluorofolin, 30 min, listed as Fluorofolin
# [4] = PA14, 5 μM fluorofolin, 60 min, listed as Fluorofolin
# [5] = PA14, 5 μM fluorofolin, 90 min, listed as Fluorofolin
Structure (SMILES),Conc (nmol/L) in cell lysate (30 min),Conc (nmol/L) in cell lysate (60 min),Conc (nmol/L) in cell lysate (90 min),AUC0-90min of accumulation,accumulation normalized to OD600 [1],accumulation normalized to OD600 (last column) [1],accumulation normalized to OD600 [2],accumulation normalized to OD600 (last column) [2],AUC0-90min of accumulation (listed as IRS-143),accumulation normalized to OD600 [3],accumulation normalized to OD600 (last column) [3],accumulation normalized to OD600 [4],accumulation normalized to OD600 (last column) [4],accumulation normalized to OD600 [5],accumulation normalized to OD600 (last column) [5]
"COc1cc(Cc2cnc(N)nc2N)cc(OC)c1OC [Trimethoprim, trimethoprim, reference compound]",0.2535 nmol/L and 0.3222 nmol/L and 0.1566 nmol/L,0.1918 nmol/L and 0.2044 nmol/L and 0.213 nmol/L,0.3012 nmol/L and 0.2417 nmol/L and 0.3455 nmol/L,254 nmol*min/OD600 and 284 nmol*min/OD600 and 182 nmol*min/OD600,0.2517 nmol/OD600 and 0.2682 nmol/OD600 and 0.2796 nmol/OD600,2.517 µmol/OD600 and 2.682 µmol/OD600 and 2.796 µmol/OD600,0.3296 nmol/OD600 and 0.2644 nmol/OD600 and 0.3781 nmol/OD600,3.296 µmol/OD600 and 2.644 µmol/OD600 and 3.781 µmol/OD600,,,,,,,
Nc1nc(N)c2c(ccc3c2ccn3Cc2ccnc(F)c2)n1 [fluorofolin],1.0527 nmol/L and 1.3067 nmol/L and 1.086 nmol/L,1.233 nmol/L and 1.363 nmol/L and 1.307 nmol/L,1.25 nmol/L and 1.158 nmol/L and 1.224 nmol/L,,,,,,1300 nmol*min/OD600 and 1470 nmol*min/OD600 and 1340 nmol*min/OD600,1.834 nmol/L*OD600 and 2.276 nmol/L*OD600 and 1.891 nmol/L*OD600,18.3396 nmol/OD600 and 22.7648 nmol/OD600 and 18.9119 nmol/OD600,1.712 nmol/L*OD600 and 1.893 nmol/L*OD600 and 1.816 nmol/L*OD600,17.1201 nmol/OD600 and 18.9348 nmol/OD600 and 18.1559 nmol/OD600,1.558 nmol/L*OD600 and 1.444 nmol/L*OD600 and 1.526 nmol/L*OD600,15.5838 nmol/OD600 and 14.4399 nmol/OD600 and 15.2577 nmol/OD600

# From paper PMC11087268, “A folate inhibitor exploits metabolic differences in Pseudomonas aeruginosa for narrow-spectrum targeting” (Nature Microbiology, 2024)
